From patent publication US20120108501A1, “Protease Inhibitors” (priority 2009, published 2012)

Tests used:
[1] = system: HT/92/599 clinical subtype B HIV-1; experiment: HIV-1 reverse transcriptase activity following infection in fresh human PBMCs; type: cell-based; conditions: Therapeutic Index = TC50/EC50, PBMC
Experimental: Fresh human peripheral blood mononuclear cells (PBMCs) obtained from a commercial source were purified following centrifugation using a Ficoll-Hypaque density gradient. Viable cells were induced to proliferate in the presence of PHA-P and recombinant human IL-2 for 72 hours. PBMCs pooled from three donors were cultured with test compounds in the presence of the HT/92/599 clinical subtype B HIV-1 for seven days, followed by measurement of reverse transcriptase activity in cell supernatants using a radioactive incorporation polymerization assay. […] Incorporation of TTP into DNA was monitored by spotting the reaction mixture onto a DEAE filter mat, followed by washes with 5% phosphate buffer, distilled water, and 70% ethanol, and subsequent drying of the mat. Radioactivity was measured using a Wallac 1450 Microbeta Trilux liquid scintillation counter using Opti-Fluor O. Test compound-associated toxicity was measured in PBMCs cultured for seven days in the absence of virus using XTT reagent. EC50 and EC90 values were calculated as the protease inhibitor concentration leading to 50% and 90% reduction in […], respectively, compared to virus-infected cells without protease inhibitor. TC50 values were calculated as the protease inhibitor concentration leading to 50% cell death in the absence of viral infection. A value for Therapeutic Index (TI) was calculated as TC50/EC50.

[2] = system: HIV-1RF; experiment: Cytoprotection in CEM-SS cells infected with HIV-1RF (XTT); type: cell-based; conditions: Therapeutic Index = TC50/EC50, CEM-SS
Experimental: To evaluate whether the protease inhibitors described herein retain the ability to protect against HIV-1 infection, CEM-SS cells infected with the RF strain of HIV-1 were treated with test compounds for six days, and then cell viability was monitored using the tetrazolium dye XTT. Infection studies were performed and EC50 values were calculated as the protease inhibitor concentration leading to 50% reduction in cell death compared to virus-infected cells without protease inhibitor. TC50 values were calculated as the protease inhibitor concentration leading to 50% cell death in the absence of viral infection. A value for Therapeutic Index (TI) was calculated as TC50/EC50.

Structure (SMILES)	TI [1]	TI [2]
CCCCCCCCCCCCCCCCOCC(COP(=O)(O)OC(CN(Cc1ccc(-c2ccccn2)cc1)NC(=O)C(NC(=O)OC)C(C)(C)C)C(Cc1ccccc1)NC(=O)C(NC(=O)OCCOCCOCCOCCOCCOC)C(C)(C)C)OC (centres unmarked) [mPEG5-Atazanavir-monophospholipid]	1.39	–
CCCCCCCCCCCCCCCCOCC(COP(=O)(O)OC(CN(Cc1ccc(-c2ccccn2)cc1)NC(=O)C(NC(=O)OC)C(C)(C)C)C(Cc1ccccc1)NC(=O)C(NC(=O)OCCOCCOCCOC)C(C)(C)C)OC (centres unmarked) [mPEG3-Atazanavir-monophospholipid]	45.05	40.8
CCCCCCCCCCCCCCCCOCC(COP(=O)(O)OC(CN(Cc1ccc(-c2ccccn2)cc1)NC(=O)C(NC(=O)OC)C(C)(C)C)C(Cc1ccccc1)NC(=O)C(NC(=O)OCCOCCOCCOCCOCCOCCOC)C(C)(C)C)OC (centres unmarked) [mPEG6-Atazanavir-monophospholipid, mPEG6-atazanavir monophospholipid]	3.03	0.9
